For at least one entry, the source does not settle the construct or the ends of the probe.

The data set concerns the target PITG_13587 bZIP (Phytophthora infestans) (UniProt D0NMC1). Put plainly: EMSA. The settings on record: self-competitor at 1, 10, 50-fold; recombinant protein; protein details: 6xHis, GST (N- or C-terminal, per PBM vectors); label: Cy5 (probe), unlabeled as competitor.

“ATGCCCGTCTCTAACACGTGTCCTCTCGATACTA (double strand) [bZIP wild-type motif]”: the binding result is “binds”.

For the origin of these results see article PMC11267843.
